Results of unrelated studies side by side (data: NIAID ChemDB).

Common to all: growth or infection tests; organism: Mycobacterium tuberculosis

Percent inhibition refers to the dose given; in toxicity tests it is the harm to the cells. Rows are shuffled and stem from different studies. MIC bound comes from a single tested concentration. ECn: concentration that inhibits the pathogen or its effect by n%. An empty or dashed field is not shown. MIC50, MIC90 and the like: level of inhibition, or share of isolates inhibited.

compound,cell line,method,strain,dose,measure,result
O=c1c(-c2ccccc2)c(O)c(-c2ccc(Cl)cc2)c2n1CCC2,-,-,H37Ra,-,MIC,128 µg/mL
O=C1CCNC(=S)N1C1CCCCC1,-,-,H37Rv,-,MIC,2.5 µg/mL
CN[C@@H]1[C@H](O[C@H]2[C@H](O[C@H]3[C@H](O)[C@@H](O)[C@H](N=C(N)N)[C@@H](O)[C@@H]3N=C(N)N)O[C@@H](C)[C@]2(O)C=O)O[C@@H](CO)[C@H](O)[C@H]1O,-,-,2 isolates,-,MIC,>1000 µg/mL
NC(=S)N/N=C1/C(=O)N(c2ccc(Cl)cc2)C(=O)C1C(=O)Nc1ccc(Cl)cc1,-,BACTEC,H37Rv,12.8 µg/mL,inhibition,31%
CCCOc1ccc(N2C(=O)CCNC2=S)cc1,-,-,H37Rv,-,MIC,5 µg/mL
c1ccc(-c2cn3nc(-c4ccco4)sc3n2)cc1,-,BACTEC,H37Rv,6.25 µg/mL,inhibition,<90%
CN1C(=O)[C@]23CC4=CC=C[C@H](O)[C@H]4N2C(=O)[C@@]1(CO)SS3,-,resazurin,H37Rv,-,MIC,0.05 µg/mL
c1ccc(-c2ccc(CNc3ccc(N4CCSCC4)cc3)cc2)cc1,-,-,103471,-,MIC,>16 µg/mL
COc1ccc(N2C(=O)CCNC2=S)cc1,-,-,H37Rv,-,MIC,1.3 µg/mL
O=c1[nH][nH]c(=O)c2cnccc12,-,BACTEC,H37Rv,-,MIC bound,>12.5 µg/mL
CCOC(=O)Cc1csc(/N=C2/NC(=O)/C(=C\c3ccc([N+](=O)[O-])cc3)S2)n1,-,-,H37Rv,-,MIC,>12.5 µg/mL
NC(=O)c1ccncc1,-,resazurin,H37Rv,-,MIC,>25 µg/mL
COC(=O)c1c(Cc2ccccc2)n([O-])c2cc(Cl)c(Cl)cc2[n+]1=O,-,-,H37Rv,-,MIC,>6.25 µg/mL
O=C(Nc1ccccc1N1CCSCC1)c1ccc(Cl)cc1,-,-,103471,-,MIC,>16 µg/mL
c1c(C23CC4CC(CC(C4)C2)C3)nc2sc(C3CCCCC3)nn12,-,resazurin,H37Rv,-,MIC,36.5 µM
COC1(OC)C2(Cl)CC3C4(C)OC(Cl)(C31Cl)C42Cl,-,BACTEC,H37Rv,12.5 µg/mL,inhibition,2%
CCOC(=O)Cc1csc(/N=C2/NC(=O)/C(=C\c3ccc([N+](=O)[O-])o3)S2)n1,-,-,H37Rv,12.5 µg/mL,inhibition,67%
COC1=C(c2c[nH]c3ccc(CC=C(C)C)cc23)C(=O)C(OC)=C(c2c[nH]c3ccc(CC=C(C)C)cc23)C1=O,-,BACTEC,H37Rv,-,MIC bound,>12.5 µg/mL
O=C(C/C=C/c1ccccc1)Nc1cccc(N2CCSCC2)c1,-,-,103471,-,MIC,8 µg/mL
Brc1ccc(-c2nn3cc(C45CC6CC(CC(C6)C4)C5)nc3s2)cc1,-,resazurin,H37Rv,-,MIC,20 µM
C/C=C(\Oc1cccc(C(=O)OC)c1O)C(=O)OC,-,resazurin,-,-,EC50,792 µM
CC(=O)NOC[C@H]1NC(=O)[C@@H](CONC(C)=O)NC1=O,-,BACTEC,H37Rv,12.5 µg/mL,inhibition,12%
Cc1nn2cc(C34CC5CC(CC(C5)C3)C4)nc2s1,-,resazurin,H37Rv,-,MIC,22.7 µM
CCSc1[nH]c(Nc2nc(-c3ccccc3)n(-c3ccccc3)n2)c(C(N)=O)c1C(N)=O,-,BACTEC,H37Rv,-,MIC bound,>12.5 µg/mL
CCc1ccc(NC(=S)NCCC(=O)O)cc1,-,-,H37Rv,-,MIC,1.3 µg/mL
CCN(CC)S(=O)(=O)Nc1c(C)n(C)n(-c2ccccc2)c1=O,-,BACTEC,H37Rv,-,MIC bound,>12.8 µg/mL
O=c1oc2cc3n(c(=O)c2c(O)c1-c1ccccc1)CCC3,-,-,H37Ra,-,MIC,≥256 µg/mL
COc1ccc2nc3ccccc3c(Nc3ccc(S(=O)(=O)Nc4cc(C)on4)cc3)c2c1,-,-,H37Rv,-,EC50,<6.25 µg/mL
CN1CCN(c2cccc(NCc3ccc(-c4ccccc4)cc3)c2)CC1,-,-,103471,-,MIC,8 µg/mL
CC(CC=O)Nc1nn2c(=O)c3ccccc3nc2s1,-,resazurin,H37Rv,6.25 µg/mL,inhibition,25%
OCc1c(-c2ccccc2)nc2sc(-c3ccco3)nn12,-,BACTEC,H37Rv,6.25 µg/mL,inhibition,<90%
C[N+](C)(C)C(Cc1ccccc1)C(=O)[O-],VERO,-,-,-,EC50,>64 µg/mL
COC(=O)/C(=C\c1ccccc1OC(C)=O)Oc1cccc(C(=O)OC)c1O,-,resazurin,-,-,EC50,89 µM
C=C1C(=O)O[C@@H]2/C=C(\C)C3C[C@H](O)[C@@](C)(CC(OC(=O)/C(C)=C\C)[C@@H]12)O3,-,BACTEC,H37Rv,-,MIC,≥12.5 µg/mL
COC(=O)/C(=C\c1ccc(Br)cc1)Oc1cccc(C(=O)OC)c1O,-,resazurin,-,-,EC50,188 µM
O=c1nc2c(c(-c3ccc(F)cc3)[nH]1)COC/C2=C/c1ccc(F)cc1,-,BACTEC,H37Rv,-,MIC bound,>12.5 µg/mL
CC(=O)O[C@H]1C[C@@]2(C)[C@@H](C[C@@H](O)[C@H]3[C@@]4(C)CC[C@@H](O)[C@@H](C)[C@@H]4CC[C@@]32C)/C1=C(\CCC=C(C)C)C(=O)O,-,agar diffusion / agar,-,-,EC50,0.8 µg/mL
COc1ccc(NC(=S)NCCC(=O)O)cc1,-,-,H37Rv,-,MIC,1.3 µg/mL
C1CSCCCSCCCSCCCSCCCSC1,-,BACTEC,H37Rv,-,MIC bound,>12.5 µg/mL
N#Cc1c(-c2ccccc2)nc2sc(C3CCCCC3)nn12,-,BACTEC,H37Rv,6.25 µg/mL,inhibition,<90%
CCOC(=O)Cc1csc(NC(=O)C(Cl)c2ccccc2)n1,-,-,H37Rv,-,MIC,>12.5 µg/mL
CCCC12C=C(OC)C(=O)C(C1=O)C(c1ccc3c(c1)OCO3)C2C,-,BACTEC,H37Rv,12.5 µg/mL,inhibition,17%
COc1ccc2nc3ccccc3c(Nc3ccc(S(N)(=O)=O)cc3)c2c1,-,-,H37Rv,-,EC50,<6.25 µg/mL
CC(=O)Oc1c2c(c(CC=C(C)C)c3c1C(=O)C1=CC4CC5C(C)(C)OC(C/C=C(\C)C(=O)O)(C4=O)C15O3)OC(C)(CCC=C(C)C)C=C2,-,BACTEC,H37Rv,-,MIC bound,>12.5 µg/mL
COc1ccc2nc3ccccc3c(Nc3ccc(S(=O)(=O)Nc4ncccn4)cc3)c2c1,-,-,H37Rv,-,EC50,<6.25 µg/mL
COC(=O)/C(=C\c1cccc(OC(C)=O)c1)Oc1cccc(C(=O)OC)c1O,-,resazurin,-,-,EC50,460 µM
CO[C@H]1/C=C/O[C@@]2(C)Oc3c(C)c(O)c4c(O)c(c(/C=N/N5CCN(C)CC5)c(O)c4c3C2=O)NC(=O)/C(C)=C\C=C\[C@H](C)[C@H](O)[C@@H](C)[C@@H](O)[C@@H](C)[C@H](OC(C)=O)[C@@H]1C,-,-,23 strains (rifampicin-susceptible),-,MIC,≤0.6 µg/mL
Cc1cc(O)c(-c2ccccc2)c(=O)n1C,-,-,H37Ra,-,MIC,16 µg/mL
CC1(C)N=C([Se])NC1=O,-,-,B814,-,MIC,0.6 µg/mL
O=C(O)c1c(O)c(Cc2ccccc2)c(=O)n2c1CCC2,-,-,H37Ra,-,MIC,>256 µg/mL
Brc1ccc(-c2nc3sc(C4CCCCC4)nn3c2CC2CCOCC2)cc1,-,BACTEC,H37Rv,6.25 µg/mL,inhibition,<90%
Cc1cc(=O)c(CO)n[nH]1,-,BACTEC,H37Rv,-,MIC bound,>12.5 µg/mL
COc1ccc2nc3ccccc3c(Nc3ccc(/C(N)=N/NC(N)=S)cc3)c2c1,-,-,H37Rv,-,EC50,>6.25 µg/mL
CCC1CCC2CN(/N=C/c3c4c(O)c5c(O)c(C)c6c(c5c3O)C(=O)[C@@](C)(O/C=C/[C@H](OC)[C@@H](C)[C@@H](OC(C)=O)[C@H](C)[C@H](O)[C@H](C)[C@@H](O)[C@@H](C)/C=C/C=C(/C)C(=O)N4)O6)CCN2C1,-,-,23 strains (rifampicin-susceptible),-,MIC,≤0.04 µg/mL
O=C(O)c1c(O)c(-c2ccccc2)c(=O)n2c1CCC2,-,-,H37Ra,-,MIC,>256 µg/mL
c1ccc(-c2nc3sc(-c4cccs4)nn3c2CC2CCOCC2)cc1,-,BACTEC,H37Rv,6.25 µg/mL,inhibition,<90%
Cl.NCCc1nc(-c2nc(C(=O)O)cs2)cs1,-,BACTEC,H37Rv,-,MIC bound,>12.8 µg/mL
O=c1oc2c(Cc3ccccc3)c(=O)n3c(c2c(O)c1-c1ccccc1)CCC3,-,-,H37Ra,-,MIC,256 µg/mL
COc1ccc(C(=O)N2CCN(c3ccc4c(c3)OCC(=O)N4)CC2)cc1,-,resazurin,H37Rv,-,MIC bound,>6.25 µg/mL
C[C@@H]1CN(c2c(F)c(N)c3c(=O)c(C(=O)O)cn(C4CC4)c3c2F)C[C@H](C)N1,-,-,18 isolates,-,MIC90,0.5 µg/mL
CCOC(=O)c1c(O)c(-c2ccccc2)c(=O)n2c1CCC2,-,-,H37Ra,-,MIC,256 µg/mL
Brc1ccc(-c2nc3sc(-c4ccco4)nn3c2CN2CCCC2)cc1,-,BACTEC,H37Rv,6.25 µg/mL,inhibition,<90%
Cc1c(CN2CCN(C)CC2)cc(-c2ccc(Cl)cc2)n1-c1ccc(Cl)cc1,-,-,CIP6425,-,MIC,1.5 µg/mL
CC1=C(CCC(C)CO)O[C@H]2C[C@H]3[C@@H]4CC[C@H]5C[C@@H](O)CC[C@]5(C)[C@H]4CC(=O)[C@]3(C)[C@@H]12,-,BACTEC,H37Rv,12.5 µg/mL,inhibition,-11%
CO[C@H]1/C=C/O[C@@]2(C)Oc3c(C)c(O)c4c(O)c(c(/C=N/N5CCN(C/C=C/c6ccccc6)CC5)c(O)c4c3C2=O)NC(=O)/C(C)=C\C=C\[C@H](C)[C@H](O)[C@@H](C)[C@@H](O)[C@@H](C)[C@H](OC(C)=O)[C@@H]1C,-,-,MTB11,-,MBC,0.12 µg/mL
Brc1ccc(-c2nc3sc(C4CCCCC4)nn3c2CN2CCCCC2)cc1,-,BACTEC,H37Rv,6.25 µg/mL,inhibition,<90%
COCNC(=S)c1ccc(C(N)=O)nc1C(=O)NC(C)(C)C,-,resazurin,H37Rv,6.25 µg/mL,inhibition,-16%
CN1C(=S)NC(C)(C)C1=S,-,-,B814,-,MIC,100 µg/mL
C[N+](C)=c1ccc2nc3c(cc(NCCCNc4cc5oc6cc(=[N+](C)C)ccc-6nc5c5ccccc45)c4ccccc43)oc-2c1.[Cl-].[Cl-],-,-,H37Rv,-,MIC,3.13 µg/mL
CO[C@H]1/C=C/O[C@@]2(C)Oc3c(C)c(O)c4c(O)c(c(/C=N/N5CCN(C6CCCC6)CC5)c(O)c4c3C2=O)NC(=O)/C(C)=C\C=C\[C@H](C)[C@H](O)[C@@H](C)[C@@H](O)[C@@H](C)[C@H](OC(C)=O)[C@@H]1C,-,-,23 strains (rifampicin-susceptible),-,MIC,≤0.16 µg/mL
Cc1cn2c(C(=O)NCc3ccc4c(c3)CCO4)c(C)nc2s1,-,luminescence,H37Rv,-,MIC,0.54 µM
Cc1cc(NC(=O)C(F)(F)F)c(-c2ccccc2)c(=O)[nH]1,-,-,H37Ra,-,MIC,>256 µg/mL
COc1ccc2nc3ccccc3c(Nc3ccc(S(=O)(=O)NC(C)=O)cc3)c2c1,-,-,H37Rv,-,EC50,>6.25 µg/mL
CCOC(=O)Cc1csc(/N=C2/NC(=O)/C(=C\c3ccc(C(=O)O)cc3)S2)n1,-,-,H37Rv,-,MIC,>12.5 µg/mL
FC(F)(F)c1nn2cc(C34CC5CC(CC(C5)C3)C4)nc2s1,-,resazurin,H37Rv,-,MIC,12 µM
COC(=O)/C(=C\c1ccc(OC(C)=O)cc1)Oc1cccc(C(=O)OC)c1O,-,resazurin,-,-,EC50,120 µM
C[C@H]1COc2c(N3CCN(C)CC3)c(F)cc3c(=O)c(C(=O)O)cn1c23,-,-,001-012 (drug-resistant),-,MBC,0.75 µg/mL
CCOC(=O)Cc1csc(NC(=O)CCl)n1,-,-,H37Rv,-,MIC,>12.5 µg/mL
OO,-,colony count,H37Rv,-,EC50,>500 µM
CCCCCCn1c(C)cc(O)c(-c2ccccc2)c1=O,-,-,H37Ra,-,MIC,8 µg/mL
COC(=O)/C(=C\c1ccc(C)cc1)Oc1cccc(C(=O)OC)c1O,-,resazurin,-,-,EC50,270 µM
O=C1CCNC(=S)N1c1ccccc1,-,-,H37Rv,-,MIC,1.3 µg/mL
CCN1C(=O)C(=O)N(CC)C1=S,-,-,B814,-,MIC,100 µg/mL

For reference, 4 entries again:

| compound | cell line | method | strain | dose | measure | result |
|---|---|---|---|---|---|---|
| COc1ccc2nc3ccccc3c(Nc3ccc(S(N)(=O)=O)cc3)c2c1 | - | - | H37Rv | - | EC50 | <6.25 µg/mL |
| C[C@H]1COc2c(N3CCN(C)CC3)c(F)cc3c(=O)c(C(=O)O)cn1c23 | - | - | 001-012 (drug-resistant) | - | MBC | 0.75 µg/mL |
| COC(=O)/C(=C\c1ccc(C)cc1)Oc1cccc(C(=O)OC)c1O | - | resazurin | - | - | EC50 | 270 µM |
| CCOC(=O)Cc1csc(/N=C2/NC(=O)/C(=C\c3ccc([N+](=O)[O-])cc3)S2)n1 | - | - | H37Rv | - | MIC | >12.5 µg/mL |